# HIV-1 NL4-3 point mutations in Vif: replication capacity

Data from the supplement of Al-Mawsawi et al. 2014, doi:10.1186/s12977-014-0124-6.

Protein: Vif of HIV-1 NL4-3, numbered from its first residue. The source prints no sequence; the chain below is taken from UniProt P12504, a closely related isolate, and fits the source at the 145 positions it covers.
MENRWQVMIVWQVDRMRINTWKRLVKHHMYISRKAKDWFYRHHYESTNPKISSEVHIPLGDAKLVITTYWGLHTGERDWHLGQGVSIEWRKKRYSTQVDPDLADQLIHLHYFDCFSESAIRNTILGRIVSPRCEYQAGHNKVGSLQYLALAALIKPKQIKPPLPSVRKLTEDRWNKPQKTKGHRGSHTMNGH
"Other frame" gives the effect on an overlapping gene as the source lists it; other overlaps (genes, RNA elements) are not shown.

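Seven fragments of pNL4-3 were mutated by error-prone PCR, and each virus pool was passaged in CEM T cells. Sequencing gave the RC index: frequency after two rounds over frequency in the input plasmid.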

RC index: lower means poorer replication; rough cut-offs are 0.1 (lethal) and 0.2 (tolerated). A change reads original residue, position, new residue. Input reads are the counts in the plasmid library. Nucleotide positions follow pNL4-3.

substitution	base	other frame	input reads	RC
M1V	A5041G	integrase Y271C	259	0.0607
M1L	A5041T	integrase Y271F	351	0.0767
M1T	T5042C	integrase silent	329	0.0546
M1I	G5043A	integrase G272R	177	0.621
N3Y	A5047T	integrase K273I	296	0.0531
N3S	A5048G	integrase silent	182	0.0617
N3I	A5048T	integrase K273N	308	0.0729
W5R	T5053A	integrase M275K	432	0.0364
Q6K	C5056A	integrase A276E	128	0.105
V7M	G5059A	integrase G277D	270	0.0831
V7L	G5059C	integrase G277A	75	0.120
V7E	T5060A	integrase silent	201	0.0447
V7A	T5060C	integrase silent	273	0.0822
V7G	T5060G	integrase silent	38	0.118
M8L	A5062T	integrase D278V	235	0.0286
V10A	T5069C	integrase silent	246	0.155
W11R	T5071A	integrase V281E	380	0.0650
W11R	T5071C	integrase V281A	294	0.0534
Q12P	A5075C	integrase silent	46	0.0556
Q12L	A5075T	integrase silent	301	0.0425
V13A	T5078C	integrase silent	199	0.0899
D14G	A5081G	integrase silent	199	0.0642
D14E	C5082A	integrase Q285K	46	0.222
R15W	A5083T	integrase Q285L	337	0.0455
M16L	A5086T	integrase D286V	230	0.0334
M16K	T5087A	integrase D286E	246	0.0416
M16I	G5088A	integrase E287K	158	0.631
R17W	A5089T	integrase E287V	383	0.0467
R17K	G5090A	integrase silent	269	0.190
R17S	G5091T	integrase D288Y	116	0.176
I18F	A5092T	integrase D288V	194	0.0264
N19D	A5095G	none	130	0.669
N19S	A5096G	none	247	0.0725
T20S	A5098T	none	314	0.0407
W21C	G5103T	none	126	0.122
K22R	A5105G	none	404	0.0570
K22I	A5105T	none	271	0.0377
R23G	A5107G	none	359	0.798
R23S	A5109T	none	147	0.0348
L24V	T5110G	none	32	0.160
L24F	A5112T	none	344	0.141
V25L	G5113C	none	69	0.0371
K26E	A5116G	none	338	0.0378
K26R	A5117G	none	175	0.0438
H28R	A5123G	none	198	0.0775
H28L	A5123T	none	321	0.0637
M29V	A5125G	none	163	0.0784
M29K	T5126A	none	113	0.385
M29T	T5126C	none	103	0.149
M29I	G5127A	none	342	0.0822
S32T	T5134A	none	331	0.232
S32P	T5134C	none	239	0.139
K34R	A5141G	none	223	0.0573
K34N	A5142T	none	332	0.0231
A35D	C5144A	none	132	0.136
K36M	A5147T	none	253	0.0101
W38R	T5152A	none	495	0.0517
W38R	T5152C	none	254	0.0906
W38C	G5154C	none	132	0.116
F39S	T5156C	none	180	0.114
Y40H	T5158C	none	127	0.0604
Y40F	A5159T	none	283	0.0632
H43Q	C5169A	none	303	0.0253
Y44H	T5170C	none	172	0.119
S46T	G5177C	none	182	0.0843
T47A	A5179G	none	169	0.0605
T47S	A5179T	none	182	0.0421
T47N	C5180A	none	100	0.153
T47I	C5180T	none	554	0.0923
N48D	A5182G	none	239	0.0428
N48S	A5183G	none	255	0.0301
P49L	C5186T	none	230	0.178
K50E	A5188G	none	424	0.0724
S52R	A5194C	none	120	0.0852
S52N	G5195A	none	252	0.0812
S52T	G5195C	none	52	0.0492
S52R	T5196A	none	255	0.0201
S53L	C5198T	none	141	1.14
E54G	A5201G	none	201	0.0763

The opening 8 entries, copied out:

substitution,base,other frame,input reads,RC
M1V,A5041G,integrase Y271C,259,0.0607
M1L,A5041T,integrase Y271F,351,0.0767
M1T,T5042C,integrase silent,329,0.0546
M1I,G5043A,integrase G272R,177,0.621
N3Y,A5047T,integrase K273I,296,0.0531
N3S,A5048G,integrase silent,182,0.0617
N3I,A5048T,integrase K273N,308,0.0729
W5R,T5053A,integrase M275K,432,0.0364

Clones carried about five changes per kilobase, which can drag down the index of neutral changes. An index over 1, which the authors read as above wild type, was rare (1.9% of all changes in the genome).